# PubChem BioAssay AID504761, Drosophila RNAi Screening Center – 2011
# Test: 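Genome-wide fly cell screen for genes dengue virus requires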 (primary screen)
# Cell system: D.Mel-2 cells from Drosophila
# Knock-down reagent: long dsRNA against Drosophila genes
# Challenge: infection with dengue virus type 2; dose and infection time not stated
# Measurement: 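Per well on two replicate plates, imaging gave the percent of cells positive for viral envelope protein, ranked by infection, and a nuclear count of cells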
# Direction: infection score: higher = more virus-infected cells; cell count: higher = more cells in the well
# Rule for the call: 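Low infection ranks in the two replicates (chance level up to 0.065) followed by a retest with a 1.5-fold or larger significant decrease, p below 0.05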
# Calls: active = confirmed: knock-down lowers infection; inactive = not picked or not confirmed
# In all, the deposit lists about 22,000 reagents; this is an unselected part of those that have a named target and a result. Of all reagents, 116 (0.52%) are marked active. 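Calls depend on retest data that are not deposited; infection was ranked per plate without normalising between plates; the unit of the infection score is not given.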 The raw values are shown without normalisation. Not stated in the record: the amount of reagent, the time to read-out.
Target gene,DRSC id,"infection score, replicate 1","infection score, replicate 2","cell count, replicate 1","cell count, replicate 2",activity call
SPR,DRSC17886,2.11,1.39,6450,6859,inactive
SPR,DRSC18114,3.57,2.81,6531,6800,inactive
SPR,DRSC21557,1.01,7.28,6408,6289,inactive
Trf4-2,DRSC15237,0.8,4.23,5848,5488,inactive
Trf4-2,DRSC25949,3.16,9.12,6545,7086,inactive
Eglp3,DRSC04293,4.21,6.85,6682,6903,inactive
Eglp3,DRSC25630,4.16,13.4,6157,5948,inactive
CG14965,DRSC08424,6.11,7,6300,6890,inactive
Neto,DRSC18982,26.3,3.42,5671,6143,inactive
Neto,DRSC19503,3.02,1.55,6390,6497,inactive
Neto,DRSC19716,0.43,7.28,6546,6483,inactive
Neto,DRSC19717,0.9,1.35,6331,6821,inactive
Iml1,DRSC08249,26.1,4.39,4416,706,inactive
CG31710,DRSC01089,10.6,1.76,5952,6250,inactive
CG31710,DRSC22863,2.21,11.8,6243,5831,inactive
CG31710,DRSC25873,7.39,1.76,6643,6548,inactive
Naam,DRSC16252,7.79,3.78,5573,6981,inactive
CG32835 (retired record),DRSC22693,7.34,7.37,6998,6374,inactive
CG32835 (retired record),DRSC26198,18.7,8.61,5780,5612,inactive
trn,DRSC11407,0.66,2.1,6180,6343,inactive
Atg4a,DRSC00656,4.47,2,6471,6459,inactive
Atg4a,DRSC28580,,,411,362,inactive
qin,DRSC14782,12.8,8.6,5943,6103,inactive

Laid out differently: entries from further up
trn [DRSC11407] — infection score, replicate 1 = 0.66; infection score, replicate 2 = 2.1; cell count, replicate 1 = 6180; cell count, replicate 2 = 6343; activity call = inactive
Atg4a [DRSC00656] — infection score, replicate 1 = 4.47; infection score, replicate 2 = 2; cell count, replicate 1 = 6471; cell count, replicate 2 = 6459; activity call = inactive
